PubChem BioAssay AID1259414 – Drosophila RNAi Screening Center, 2018

- Assay: 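Fly genes that alter Wolbachia amount inside host cells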 (primary screen)
- Cells: Drosophila JW18 cells infected with Wolbachia
- Reagent: long dsRNA against Drosophila genes, 0.25 µg dsRNA per well of a 384-well plate
- Duration: 5 days
- Treatment: cells persistently infected with Wolbachia before knock-down; no added drug
- Read-out: 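Imaged fluorescence in situ signal for Wolbachia 23S rRNA per DAPI-counted host cell, given as a robust z-score within each plate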
- Reading the numbers: Wolbachia per cell robust z: higher = more Wolbachia per host cell than the plate typical
- Call rule: 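Active if absolute robust z reaches 1.5 in two or more of three replicates, leaving out multi- or no-target dsRNAs, genes unexpressed in JW18 and A1 wells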
In all, the deposit lists about 24,000 reagents; shown is an unselected part of those with a known target gene and a result. Of all reagents, about 1,210 (5%) are marked active. 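Inactive calls also include excluded dsRNAs with several or no targets, genes unexpressed in JW18, and well A1, regardless of score.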 A number with no mark means an inactive call. No sequences are given here.

For Rpt1 [DRSC07542], what does the deposit list?
Wolbachia per cell robust z, rep 1: 3.11 (active); Wolbachia per cell robust z, rep 2: 1.9; Wolbachia per cell robust z, rep 3: 2.26

Which result is listed for CtsL1 [DRSC05462]?
Wolbachia per cell robust z, rep 1: 0.348; Wolbachia per cell robust z, rep 2: 0.946; Wolbachia per cell robust z, rep 3: 0.802

What did the screen give for CtsL1 [DRSC07363]?
Wolbachia per cell robust z, rep 1: 0.0532; Wolbachia per cell robust z, rep 2: -0.286; Wolbachia per cell robust z, rep 3: -0.126

What did the screen give for CtsL1 [DRSC29071]?
Wolbachia per cell robust z, rep 1: -1.82 (active); Wolbachia per cell robust z, rep 2: -2.29; Wolbachia per cell robust z, rep 3: -2.38

What is on record for CG7509 [DRSC08596]?
Wolbachia per cell robust z, rep 1: 0.25; Wolbachia per cell robust z, rep 2: 0.235; Wolbachia per cell robust z, rep 3: -0.252

Which result is listed for CG7024 [DRSC18414]?
Wolbachia per cell robust z, rep 1: 0.238; Wolbachia per cell robust z, rep 2: 0.0715; Wolbachia per cell robust z, rep 3: 0.529

With CG7024 [DRSC27277], how do the results read?
Wolbachia per cell robust z, rep 1: -0.553; Wolbachia per cell robust z, rep 2: 0.652; Wolbachia per cell robust z, rep 3: 0.81

What is on record for Cdk9 [DRSC04601]?
Wolbachia per cell robust z, rep 1: 1.81 (active); Wolbachia per cell robust z, rep 2: 1.68; Wolbachia per cell robust z, rep 3: 2.37

What did the screen give for CG15083 [DRSC06514]?
Wolbachia per cell robust z, rep 1: -3.45 (active); Wolbachia per cell robust z, rep 2: -0.436; Wolbachia per cell robust z, rep 3: -3.42

With CG18259 [DRSC41303], how do the results read?
Wolbachia per cell robust z, rep 1: -1.34; Wolbachia per cell robust z, rep 2: -2.19; Wolbachia per cell robust z, rep 3: 0.838

With qin [DRSC14782], how do the results read?
Wolbachia per cell robust z, rep 1: -4.69; Wolbachia per cell robust z, rep 2: -0.672; Wolbachia per cell robust z, rep 3: -0.598

For qin [DRSC14785], what does the deposit list?
Wolbachia per cell robust z, rep 1: 0.425; Wolbachia per cell robust z, rep 2: -0.937; Wolbachia per cell robust z, rep 3: 0.27

Which result is listed for qin [DRSC41506]?
Wolbachia per cell robust z, rep 1: -2.15; Wolbachia per cell robust z, rep 2: 0.555; Wolbachia per cell robust z, rep 3: 0.204

What is on record for CG10694 [DRSC14263]?
Wolbachia per cell robust z, rep 1: -0.0246; Wolbachia per cell robust z, rep 2: 0.282; Wolbachia per cell robust z, rep 3: -0.997

Copied from the list:
For “Wolbachia per cell robust z, rep 3”, CG7509 [DRSC08596] shows -0.252
CtsL1 [DRSC07363], Wolbachia per cell robust z, rep 2 → -0.286
For “Wolbachia per cell robust z, rep 1”, CtsL1 [DRSC29071] is entered as -1.82 (active)
Entry for CG15083 [DRSC06514] under “Wolbachia per cell robust z, rep 1”: -3.45 (active)
Under “Wolbachia per cell robust z, rep 2”, CG7024 [DRSC27277] reads 0.652

Additional records:
For Rad17 [DRSC16811], what was measured?
Wolbachia per cell robust z, rep 1: 0.484; Wolbachia per cell robust z, rep 2: 1.01; Wolbachia per cell robust z, rep 3: 0.588

For CG4041 [DRSC18339], what was measured?
Wolbachia per cell robust z, rep 1: 0.76; Wolbachia per cell robust z, rep 2: 0.499; Wolbachia per cell robust z, rep 3: -0.00689

With CG4041 [DRSC26992], how do the results read?
Wolbachia per cell robust z, rep 1: 1.32; Wolbachia per cell robust z, rep 2: 1.68; Wolbachia per cell robust z, rep 3: 0.72

What did the screen give for Eaf [DRSC05050]?
Wolbachia per cell robust z, rep 1: 1.82; Wolbachia per cell robust z, rep 2: 0.462; Wolbachia per cell robust z, rep 3: -0.358

With Eaf [DRSC06052], how do the results read?
Wolbachia per cell robust z, rep 1: 0.761; Wolbachia per cell robust z, rep 2: -2.24; Wolbachia per cell robust z, rep 3: 0.675

What is on record for Eaf [DRSC22028]?
Wolbachia per cell robust z, rep 1: -0.414; Wolbachia per cell robust z, rep 2: -0.803; Wolbachia per cell robust z, rep 3: -0.502

What is on record for Eaf [DRSC27471]?
Wolbachia per cell robust z, rep 1: -0.68; Wolbachia per cell robust z, rep 2: 1.92; Wolbachia per cell robust z, rep 3: -0.914

For CG5819 [DRSC04520], how do the results read?
Wolbachia per cell robust z, rep 1: -0.783; Wolbachia per cell robust z, rep 2: -0.297; Wolbachia per cell robust z, rep 3: -0.335

For CG5819 [DRSC28265], what does the deposit list?
Wolbachia per cell robust z, rep 1: 0.839; Wolbachia per cell robust z, rep 2: 1.01; Wolbachia per cell robust z, rep 3: 0.692

With Rpp14b [DRSC15063], how do the results read?
Wolbachia per cell robust z, rep 1: 0.56; Wolbachia per cell robust z, rep 2: -4.24; Wolbachia per cell robust z, rep 3: -1.39

How did the screen score Inx3 [DRSC14857]?
Wolbachia per cell robust z, rep 1: -0.402; Wolbachia per cell robust z, rep 2: 0.0784; Wolbachia per cell robust z, rep 3: -0.181

How did the screen score Inx3 [DRSC24037]?
Wolbachia per cell robust z, rep 1: -0.275; Wolbachia per cell robust z, rep 2: -0.48; Wolbachia per cell robust z, rep 3: -0.674

For CG7945 [DRSC10934], what does the deposit list?
Wolbachia per cell robust z, rep 1: 1.45; Wolbachia per cell robust z, rep 2: -1.18; Wolbachia per cell robust z, rep 3: -1.37

What did the screen give for CG5727 [DRSC02882]?
Wolbachia per cell robust z, rep 1: -0.911; Wolbachia per cell robust z, rep 2: -0.349; Wolbachia per cell robust z, rep 3: -0.0717

With CG5727 [DRSC29537], what does the deposit list?
Wolbachia per cell robust z, rep 1: -0.192; Wolbachia per cell robust z, rep 2: 0.304; Wolbachia per cell robust z, rep 3: 0.0435

For CG7916 [DRSC01901], what does the deposit list?
Wolbachia per cell robust z, rep 1: -1.01; Wolbachia per cell robust z, rep 2: -1.6; Wolbachia per cell robust z, rep 3: -0.0716
